{"sequences": {"note": "Chains of the proteins cited; added tags and fusions are not shown. Residues count along the entry.", "UniProt P05193, 21-381 limits assumed": "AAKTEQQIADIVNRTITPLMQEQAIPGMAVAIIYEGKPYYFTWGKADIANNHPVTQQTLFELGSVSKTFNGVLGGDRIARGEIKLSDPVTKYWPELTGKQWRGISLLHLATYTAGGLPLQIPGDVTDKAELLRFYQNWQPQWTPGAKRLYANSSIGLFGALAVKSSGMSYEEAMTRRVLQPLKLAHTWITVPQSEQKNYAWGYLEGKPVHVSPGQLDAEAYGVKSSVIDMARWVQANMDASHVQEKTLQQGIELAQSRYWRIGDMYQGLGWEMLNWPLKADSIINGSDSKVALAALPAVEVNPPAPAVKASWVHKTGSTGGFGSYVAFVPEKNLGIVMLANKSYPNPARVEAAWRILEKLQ", "UniProt P13661, 26-276 limits assumed": "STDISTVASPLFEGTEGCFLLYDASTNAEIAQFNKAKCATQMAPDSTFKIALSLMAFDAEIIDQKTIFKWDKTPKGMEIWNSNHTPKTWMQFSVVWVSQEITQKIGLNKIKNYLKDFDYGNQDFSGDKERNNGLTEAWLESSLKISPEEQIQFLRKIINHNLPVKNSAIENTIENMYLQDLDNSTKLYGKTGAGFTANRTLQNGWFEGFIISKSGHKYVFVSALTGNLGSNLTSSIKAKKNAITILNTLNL", "UniProt P05364, 21-381 limits assumed": "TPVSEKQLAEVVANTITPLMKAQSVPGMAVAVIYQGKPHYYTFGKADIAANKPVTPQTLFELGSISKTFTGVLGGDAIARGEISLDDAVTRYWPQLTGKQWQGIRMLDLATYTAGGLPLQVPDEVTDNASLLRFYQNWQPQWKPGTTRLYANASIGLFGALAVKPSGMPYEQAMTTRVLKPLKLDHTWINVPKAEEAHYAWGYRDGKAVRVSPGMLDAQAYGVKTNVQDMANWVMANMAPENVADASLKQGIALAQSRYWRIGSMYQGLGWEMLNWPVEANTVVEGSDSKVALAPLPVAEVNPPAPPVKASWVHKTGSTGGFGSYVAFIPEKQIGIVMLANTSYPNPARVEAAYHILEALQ", "UniProt Q59514, 26-313 limits assumed": "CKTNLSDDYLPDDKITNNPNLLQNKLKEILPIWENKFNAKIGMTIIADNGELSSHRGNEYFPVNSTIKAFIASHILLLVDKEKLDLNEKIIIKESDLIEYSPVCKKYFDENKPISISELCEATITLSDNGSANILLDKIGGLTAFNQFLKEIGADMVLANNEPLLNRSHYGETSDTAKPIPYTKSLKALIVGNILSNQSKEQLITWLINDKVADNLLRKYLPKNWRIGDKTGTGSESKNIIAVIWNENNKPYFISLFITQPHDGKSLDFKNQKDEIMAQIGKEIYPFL", "UniProt P62593, 24-286 limits assumed": "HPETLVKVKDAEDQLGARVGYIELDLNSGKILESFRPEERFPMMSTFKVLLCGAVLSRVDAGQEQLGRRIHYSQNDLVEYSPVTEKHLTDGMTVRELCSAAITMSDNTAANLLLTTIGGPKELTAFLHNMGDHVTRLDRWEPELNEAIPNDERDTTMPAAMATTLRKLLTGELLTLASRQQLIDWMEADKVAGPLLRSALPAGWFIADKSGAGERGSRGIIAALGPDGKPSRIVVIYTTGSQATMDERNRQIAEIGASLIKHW", "UniProt P0AD63, 22-286 limits assumed": "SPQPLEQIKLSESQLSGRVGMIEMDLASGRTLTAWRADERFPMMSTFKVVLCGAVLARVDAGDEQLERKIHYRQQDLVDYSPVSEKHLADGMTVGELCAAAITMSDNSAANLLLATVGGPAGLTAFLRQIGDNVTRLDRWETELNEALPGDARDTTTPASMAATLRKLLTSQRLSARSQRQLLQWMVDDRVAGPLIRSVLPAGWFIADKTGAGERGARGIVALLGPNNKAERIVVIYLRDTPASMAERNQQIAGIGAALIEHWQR", "UniProt P00807, 25-281 limits assumed": "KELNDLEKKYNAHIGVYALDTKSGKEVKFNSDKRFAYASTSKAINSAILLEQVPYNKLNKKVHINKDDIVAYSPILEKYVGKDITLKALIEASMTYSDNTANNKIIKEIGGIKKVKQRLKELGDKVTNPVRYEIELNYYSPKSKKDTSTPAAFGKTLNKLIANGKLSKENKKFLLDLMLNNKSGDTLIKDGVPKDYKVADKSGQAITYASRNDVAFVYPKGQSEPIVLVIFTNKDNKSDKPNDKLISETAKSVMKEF"}, "source": "ChEMBL document CHEMBL1151538", "about": "“Rearrangement of unsymmetrical azetidinone disulfides to 2-(heterocyclylthiomethyl)penams, a synthetic approach to new -lactamase inhibitors” (Bioorg Med Chem Lett, 1993)", "key": {"Beta-lactamase [1]": {"target": "Beta-lactamase (Citrobacter freundii, UniProt P05193)", "assay": "Inhibitory activity against Citrobacter freundii 87470 Class-I beta-lactamase enzyme"}, "Beta-lactamase OXA-1": {"target": "Beta-lactamase OXA-1 (Escherichia coli, UniProt P13661)", "assay": "Inhibitory activity against Escherichia coli HA209 Class-V OXA-1 type beta-lactamase enzyme"}, "Beta-lactamase [2]": {"target": "Beta-lactamase (Enterobacter cloacae, UniProt P05364)", "assay": "Inhibitory activity against Enterobacter cloacae HC8 Class-I beta-lactamase enzyme type P99"}, "Beta-lactamase BRO-1": {"target": "Beta-lactamase BRO-1 (Moraxella catarrhalis, UniProt Q59514)", "assay": "Inhibitory activity against Branhamella catarrhalis 89001 Class-III BRO-1 type beta-lactamase enzyme"}, "Beta-lactamase [3]": {"target": "Beta-lactamase (Klebsiella oxytoca, UniProt Q8RT60)", "assay": "Inhibitory activity against Klebsiella oxytoca HC7 Class-IV K1 type beta-lactamase enzyme"}, "Beta-lactamase TEM": {"target": "Beta-lactamase TEM (Escherichia coli, UniProt P62593)", "assay": "Inhibitory activity against Escherichia coli HA58R Class-III TEM-1 type beta-lactamase enzyme"}, "Beta-lactamase SHV-1": {"target": "Beta-lactamase SHV-1 (Escherichia coli, UniProt P0AD63)", "assay": "Inhibitory activity against Escherichia coli HA208 Class-III SHV-1 type beta-lactamase enzyme"}, "Beta-lactamase [4]": {"target": "Beta-lactamase (Staphylococcus aureus, UniProt P00807)", "assay": "Inhibitory activity against Staphylococcus aureus CJ8 beta-lactamase enzyme"}}, "data": [{"smiles": "C[C@@]1(CSc2nc[nH]n2)S[C@@H]2[C@H](Br)C(=O)N2[C@H]1C(=O)O", "values": [{"measurement": "IC50", "setting": "Beta-lactamase [1]", "result": 10500, "unit": "nM"}, {"measurement": "IC50", "setting": "Beta-lactamase OXA-1", "result": 5270, "unit": "nM"}, {"measurement": "IC50", "setting": "Beta-lactamase [2]", "result": 42200, "unit": "nM"}, {"measurement": "IC50", "setting": "Beta-lactamase BRO-1", "result": 65.9, "unit": "nM"}, {"measurement": "IC50", "setting": "Beta-lactamase [3]", "result": 1320, "unit": "nM"}, {"measurement": "IC50", "setting": "Beta-lactamase TEM", "result": 21.1, "unit": "nM"}, {"measurement": "IC50", "setting": "Beta-lactamase SHV-1", "result": 26.4, "unit": "nM"}]}, {"smiles": "CC1(C)S[C@@H]2[C@H](Br)C(=O)N2[C@H]1C(=O)O", "values": [{"measurement": "IC50", "setting": "Beta-lactamase [1]", "result": 1780, "unit": "nM"}, {"measurement": "IC50", "setting": "Beta-lactamase OXA-1", "result": 714, "unit": "nM"}, {"measurement": "IC50", "setting": "Beta-lactamase [2]", "result": 1780, "unit": "nM"}, {"measurement": "IC50", "setting": "Beta-lactamase BRO-1", "result": 10.7, "unit": "nM"}, {"measurement": "IC50", "setting": "Beta-lactamase [3]", "result": 286, "unit": "nM"}, {"measurement": "IC50", "setting": "Beta-lactamase [4]", "result": 46.4, "unit": "nM"}, {"measurement": "IC50", "setting": "Beta-lactamase TEM", "result": 14.3, "unit": "nM"}, {"measurement": "IC50", "setting": "Beta-lactamase SHV-1", "result": 17.8, "unit": "nM"}]}, {"smiles": "C[C@@]1(CSC2=NCCS2)S[C@@H]2[C@H](Br)C(=O)N2[C@H]1C(=O)O", "values": [{"measurement": "IC50", "setting": "Beta-lactamase [1]", "result": 50300, "unit": "nM"}, {"measurement": "IC50", "setting": "Beta-lactamase OXA-1", "result": 1590, "unit": "nM"}, {"measurement": "IC50", "setting": "Beta-lactamase [2]", "result": 32700, "unit": "nM"}, {"measurement": "IC50", "setting": "Beta-lactamase BRO-1", "result": 80.5, "unit": "nM"}, {"measurement": "IC50", "setting": "Beta-lactamase [3]", "result": 2520, "unit": "nM"}, {"measurement": "IC50", "setting": "Beta-lactamase [4]", "result": 126, "unit": "nM"}, {"measurement": "IC50", "setting": "Beta-lactamase TEM", "result": 40.3, "unit": "nM"}, {"measurement": "IC50", "setting": "Beta-lactamase SHV-1", "result": 503, "unit": "nM"}]}]}
